Assay results published in PMC8880671, “Facial Synthesis and Bioevaluation of Well-Defined OEGylated Betulinic Acid-Cyclodextrin Conjugates for Inhibition of Influenza Infection” (Molecules, 2022).

Test system: influenza A/WSN/33 (H1N1) virus
Assay type: cell-based
Conditions: CC50 in MDCK / IC50 against A/WSN/33

Substance	SI (Selectivity Index, ratio of CC50 to IC50)
Heptakis 6-Deoxy-6-[4-N-(3β-Hydroxy-lup-20(29)-en-28-oyl)-aminomethyl-1H-1,2,3-triazol-1-yl]-β-CD [Compound 70]	>13.4
Hexakis 6-Deoxy-6-[4-N-(3β-Hydroxy-lup-20(29)-en-28-oyl)-aminomethyl-1H-1,2,3-triazol-1-yl]-α-CD [Compound 69]	>10.2
Octakis 6-Deoxy-6-[4-N-(3β-Hydroxy-lup-20(29)-en-28-oyl)-aminomethyl-1H-1,2,3-triazol-1-yl]-γ-CD [Compound 71]	>13.2
